{"source": "paper PMC9025269", "about": "“Synthesis and Anti-Hepatitis B Activities of 3′-Fluoro-2′-Substituted Apionucleosides” (Molecules, 2022)", "origin": "cited, not measured here", "test_system": "HBV", "set-up": "method as in PMID 21364549", "settings": "long-term administration; lamivudine within five years; cited from earlier work"}
{"smiles": "C=C1[C@H](CO)[C@@H](O)C[C@@H]1n1cnc2c(=O)[nH]c(N)nc21", "note": "[Compound 1, entecavir, reference compound]", "values": [{"measurement": "development (incidence) of drug-resistant mutation", "value": 1.2, "unit": "%"}]}
{"smiles": "Nc1ccn([C@@H]2CS[C@H](CO)O2)c(=O)n1", "note": "[Lamivudine, lamivudine]", "values": [{"measurement": "development (incidence) of drug-resistant mutation", "value": "≤ 70", "unit": "%"}]}
